Assay: Safety and tolerability of clofazimine delivered by nebulization in healthy subjects
Conditions: single and daily repeated doses for 7 days up to 90 mg, inhaled

## CC(C)/N=c1\cc2n(-c3ccc(Cl)cc3)c3ccccc3nc-2cc1Nc1ccc(Cl)cc1 [Clofazimine, N,5-bis(4-chlorophenyl)-3-propan-2-yliminophenazin-2-amine]
  tolerability, serious adverse-effects: well tolerated with no serious adverse-effects

— US20260069590A1, “METHOD FOR TREATING NONTUBERCULOUS MYCOBACTERIAL INFECTION” (priority 2022, published 2026)
